Anti-infective test results gathered from many reports (values: NIAID ChemDB through PubChem).

Common to all: tests on isolated targets; agent: Hepatitis C virus

Conditions beyond the fields shown may differ between rows. Two numbers with a dash give a range or band. ICn is the concentration giving n% inhibition. An empty or dashed field is not shown. Percent inhibition refers to the dose given; in toxicity tests it is the harm to the cells.

| compound | strain or isolate | protein | measure | tested at | result |
|---|---|---|---|---|---|
| O=C(O)c1cnn2c(C3CCCCC3)c(-c3ccc(OCc4ccccc4)c(F)c3)cnc12 |  | RNA-dependent RNA polymerase | IC50 |  | 1–10 µM |
| CCOC(=O)c1sc2ccc(NC(=O)C3(NC(=O)c4ccc5c(c4)nc(-c4ccoc4)n5C4CCCCC4)CCCC3)cc2c1C |  | NS5B polymerase | IC50 |  | 0.5–5 µM |
| CC[C@@H](C=O)NC(=O)[C@@H]1C[C@@H](OCc2cnc(-c3ccc(Cl)cc3)s2)CN1C(=O)[C@@H](NC(=O)[C@@H](NC(=O)c1cnccn1)C(C)C)C(C)C |  | NS3 protease | Ki |  | 1–100 µM |
| COc1cccc(COc2ccc(-c3cnc4c(-c5nn[nH]n5)cnn4c3C3CCCCC3)cc2)c1 |  | RNA-dependent RNA polymerase | IC50 |  | <1 µM |
| CNC(=O)c1c(-c2ccc(F)cc2)oc2cc(C(O)C(C)C)c(OC(C)C)cc12 |  | Nonstructural protein 5B | IC50 |  | ≤0.5 µM |
| C=C[C@@H]1C[C@]1(NC(=O)[C@@H]1C[C@@H](Oc2cc(-c3ccccc3)nc3cc(OC)ccc23)CN1C(=O)[C@@H](NC(=O)OCCC(=O)O)C(C)(C)C)C(=O)NS(=O)(=O)C1CC1 | BMS | NS3/NS4A protease | IC50 |  | <0.05 µM |
| Cc1onc(-c2ccc(Cl)cc2)c1-c1ccc2cc(-c3nc4cc(C(=O)O)ccc4n3C3CCCCC3)ccc2n1 |  | NS5B polymerase | inhibition | 100 µM | 100% |
| C=C[C@@H]1C[C@]1(NC(=O)[C@@H]1C[C@@H](Oc2cc(-c3ccccc3)nc3cc(OC)ccc23)CN1C(=O)[C@@H](NC(=O)OC(C)(C)C)C(C)(C)C)C(=O)NS(=O)(=O)c1ccccc1C#N | BMS | NS3/NS4A protease | IC50 |  | <0.5 µM |
| CC(NC(=O)c1ccc2c(c1)nc(-c1ccoc1)n2C1CCCCC1)C(=O)Nc1ccc(CCCC(=O)O)cc1 |  | NS5B polymerase | IC50 |  | 0.5–5 µM |
| COc1ccc2c(O[C@@H]3C[C@@H](C(=O)N[C@@]4(C(=O)NS(=O)(=O)C5(Cc6ccccc6)CC5)CC45CC5)N(C(=O)[C@@H](NC(=O)OC(C)(C)C)C(C)(C)C)C3)cc(-c3ccccc3)nc2c1 | BMS | NS3/NS4A protease | IC50 |  | 0.5–5 µM |
| COc1ccccc1-c1cc(-c2cccc(Cl)c2)n2nc(C(=O)O)cc2n1 |  | RNA-dependent RNA polymerase | IC50 |  | >10 µM |
| CC[C@@H](C=O)NC(=O)[C@@H]1C[C@@H](NC(=O)OCc2ccccc2)CN1C(=O)[C@@H](NC(=O)[C@@H](NC(=O)c1cnccn1)C(C)C)C(C)C |  | NS3 protease | Ki |  | >100 µM |
| c1cc(OCC2CC2)cc(-c2cnc3c(-c4nn[nH]n4)cnn3c2C2CCCCC2)c1 |  | RNA-dependent RNA polymerase | IC50 |  | 1–10 µM |
| C=CCOc1cc2c(C(=O)NC)c(-c3ccc(F)cc3)oc2cc1N(CC=C)S(C)(=O)=O |  | Nonstructural protein 5B | IC50 |  | ≤0.5 µM |
| C=C[C@H]1C[C@@]1(NC(=O)[C@@H]1C[C@@H](Oc2cc(-c3ccccc3)nc3cc(OC)ccc23)CN1C(=O)[C@@H](NC(=O)OC1CCOCC1)C(C)(C)C)C(=O)NS(=O)(=O)C1(Cc2ccccc2)CC1 | BMS | NS3/NS4A protease | IC50 |  | <0.05 µM |
| C=CC1CC1(NC(=O)[C@@H]1C[C@@H](OC(=O)Nc2ccccc2-n2cccn2)CN1C(=O)[C@@H](NC(=O)OC(C)(C)C)C(C)(C)C)C(=O)NS(=O)(=O)C1CC1 | BMS/H77C/J416S | NS3/NS4A protease | IC50 |  | <0.1 µM |
| CC[C@@H](C=O)NC(=O)[C@@H]1C[C@@H](OCc2ccccc2)CN1C(=O)[C@@H](NC(=O)C1CCCC1c1ccccc1)C(C)C |  | NS3 protease | Ki |  | >100 µM |
| O=C(O)/C=C/c1ccc(NC(=O)C2(NC(=O)c3ccc4c(c3)nc(-c3ccoc3)n4C3CCCCC3)CCCC2)cc1 |  | NS5B polymerase | IC50 |  | <0.5 µM |
| C=C[C@@H]1C[C@]1(NC(=O)[C@@H]1C[C@@H](Oc2cc(-c3ccccc3)nc3cc(OC)ccc23)CN1C(=O)[C@@H](NC(=O)C(C)(C)C)C(C)(C)C)C(=O)NS(=O)(=O)C1CC1 | BMS | NS3/NS4A protease | IC50 |  | <0.05 µM |
| O=C(O)c1ccc2c(c1)nc(-c1ccc3nc(-c4ccccc4[N+](=O)[O-])ccc3c1)n2C1CCCCC1 |  | NS5B polymerase | inhibition | 100 µM | 101% |
| C=C[C@@H]1C[C@]1(NC(=O)[C@@H]1C[C@@H](Oc2cc(-c3ccccc3)nc3cc(OC)ccc23)CN1C(=O)[C@@H](NC(=O)OC(C)(C)C)C(C)(C)C)C(=O)NS(=O)(=O)c1c(Cl)cccc1Cl | BMS | NS3/NS4A protease | IC50 |  | <0.05 µM |
| O=C(O)c1ccc2c(c1)nc(-c1ccc3nc(CCCO)ccc3c1)n2C1CCCCC1 |  | NS5B polymerase | inhibition | 100 µM | 93.53% |
| COc1ccc2c(O[C@@H]3C[C@@H](C(=O)NC4(C(=O)NS(=O)(=O)C5CC5)CC45CCCC5)N(C(=O)[C@@H](NC(=O)OC(C)(C)C)C(C)(C)C)C3)cc(-c3ccccc3)nc2c1 | BMS | NS3/NS4A protease | IC50 |  | <5 µM |
| NCCCC[C@H](NC(=O)c1cnn2c(C3CCCCC3)c(-c3ccc(F)cc3)cnc12)C(=O)O |  | RNA-dependent RNA polymerase | IC50 |  | 1–10 µM |
| O=C(O)/C=C/c1ccc(NC(=O)C2(NC(=O)c3ccc4c(c3)nc(-c3cccs3)n4C3CCC3)CCCC2)cc1 |  | NS5B polymerase | IC50 |  | 0.5–5 µM |
| C=CC1CC1(NC(=O)[C@@H]1C[C@@H](OC(=O)Nc2c(CC)cccc2CC)CN1C(=O)[C@@H](NC(=O)OC(C)(C)C)C(C)(C)C)C(=O)NS(=O)(=O)C1CC1 | BMS/H77C/J416S | NS3/NS4A protease | IC50 |  | 1–10 µM |
| CC[C@H](C)[C@H](NC(=O)OC(C)(C)C)C(=O)N1C[C@H](Oc2cc(-c3ccccc3)nc3cc(OC)ccc23)C[C@H]1C(=O)NC1(C(=O)NS(=O)(=O)C2CC2)CC1 | BMS | NS3/NS4A protease | IC50 |  | <0.05 µM |
| CC(=O)NCCNC(=O)c1cc2nccc(-c3ccc(-c4ccc(Cl)s4)cc3)n2n1 |  | RNA-dependent RNA polymerase | IC50 |  | >10 µM |
| Cc1cc(-c2ccc3cc(-c4nc5cc(C(=O)O)ccc5n4C4CCCCC4)ccc3n2)c(-c2ccccc2)s1 |  | NS5B polymerase | inhibition | 100 µM | 98.07% |
| O=C(O)/C=C/c1ccc(NC(=O)C2(NC(=O)c3ccc4c(c3)nc(-c3cccs3)n4C3CCCC3)CCCC2)cc1 |  | NS5B polymerase | IC50 |  | 0.5–5 µM |
| O=C(O)c1cc2nc(-c3ccc(OCc4ccccc4)cc3)c(-c3ccccc3)cn2n1 |  | RNA-dependent RNA polymerase | IC50 |  | >10 µM |
| C=C[C@@H]1C[C@]1(NC(=O)[C@@H]1C[C@@H](Oc2cc(-c3ccccc3)nc3cc(OC)ccc23)CN1C(=O)[C@@H](NC(=O)OC(C)(C)C)C(C)(C)C)C(=O)NS(=O)(=O)c1ccc(C(C)(C)C)cc1 | BMS | NS3/NS4A protease | IC50 |  | <0.5 µM |
| C=CC1CC1(NC(=O)[C@@H]1C[C@@H](OC(=O)NC2CCCCC2)CN1C(=O)[C@@H](NC(=O)OC(C)(C)C)C(C)(C)C)C(=O)NS(=O)(=O)C1CC1 | BMS/H77C/J416S | NS3/NS4A protease | IC50 |  | <0.1 µM |
| COc1ccc(-c2ccc(Cl)cc2)c(-c2ccc3cc(-c4nc5cccc(C(=O)O)c5n4C4CCCCC4)ccc3n2)c1 |  | NS5B polymerase | inhibition | 100 µM | 102% |
| C=C[C@@H]1C[C@]1(NC(=O)[C@@H]1C[C@@H](Oc2cc(-c3ccccc3)nc3cc(OC)ccc23)CN1C(=O)[C@@H](NC(=O)CC1C2CC1C2)C(C)(C)C)C(=O)NS(=O)(=O)C1CC1 | BMS | NS3/NS4A protease | IC50 |  | <0.05 µM |
| C=C[C@H]1C[C@@]1(NC(=O)[C@@H]1C[C@@H](Oc2cc(-c3ccccc3)nc3cc(OC)ccc23)CN1C(=O)[C@@H](NC(=O)NC(C)(C)C)C(C)(C)C)C(=O)NS(=O)(=O)C1(Cc2ccccc2)CC1 | BMS | NS3/NS4A protease | IC50 |  | <0.05 µM |
| O=C(O)c1ccc2c(c1)nc(-c1ccc3nc(-c4cc(O)cc(O)c4)ccc3c1)n2C1CCCCC1 |  | NS5B polymerase | inhibition | 100 µM | 98.05% |
| C/C(=C\c1ccc(NC(=O)C2(NC(=O)c3ccc4c(c3)nc(-c3ccoc3)n4C3CCCCC3)CCCC2)cc1)C(=O)O |  | NS5B polymerase | IC50 |  | <0.5 µM |
| C=CC1CC1(NC(=O)[C@@H]1C[C@@H](OC(=O)Nc2cc(C(F)(F)F)ccc2-n2cccc2)CN1C(=O)[C@@H](NC(=O)OC(C)(C)C)C(C)(C)C)C(=O)NS(=O)(=O)C1CC1 | BMS/H77C/J416S | NS3/NS4A protease | IC50 |  | <0.1 µM |
| O=C(NC(Cc1ccccc1)C(=O)O)c1ccc2c(c1)nc(-c1ccc3nc(-c4ccccc4)cnc3c1)n2C1CCCCC1 |  | NS5B polymerase | inhibition | 33 µM | 95.92% |
| C=C[C@H]1C[C@@]1(NC(=O)[C@@H]1C[C@@H](Oc2cc(-c3ccccc3)nc3cc(OC)ccc23)CN1C(=O)[C@@H](NC(=O)OC(C)(C)C)C(C)(C)C)C(=O)NS(=O)(=O)C1(Cc2cccnc2)CC1 | BMS | NS3/NS4A protease | IC50 |  | <0.05 µM |
| C=CC1CC1(NC(=O)[C@@H]1C[C@@H](OC(=O)Nc2cc(F)ccc2-n2cccn2)CN1C(=O)[C@@H](NC(=O)OC(C)(C)C)C(C)(C)C)C(=O)NS(=O)(=O)C1CC1 | BMS/H77C/J416S | NS3/NS4A protease | IC50 |  | <0.1 µM |
| CC(NC(=O)c1ccc2c(c1)nc(-c1ccoc1)n2C1CCCCC1)C(=O)Nc1cccc(-c2cccc(N)c2)c1 |  | NS5B polymerase | IC50 |  | 0.5–5 µM |
| CNC(=O)c1c(-c2ccc(F)cc2)oc2cc(N(Cc3nc(C(=O)O)cs3)S(C)(=O)=O)c(OC(C)C)cc12 |  | Nonstructural protein 5B | IC50 |  | ≤0.5 µM |
| COc1ccc2c(O[C@@H]3C[C@@H](C(=O)NC4(C(=O)NS(=O)(=O)C5CC5)CCC4)N(C(=O)[C@@H](NC(=O)OC(C)(C)C)C(C)(C)C)C3)cc(-c3ccccc3)nc2c1 | BMS | NS3/NS4A protease | IC50 |  | <0.05 µM |
| C=CC1CC1(NC(=O)[C@@H]1C[C@@H](OC(=O)Nc2cc(Cl)nc(Cl)c2)CN1C(=O)[C@@H](NC(=O)OC(C)(C)C)C(C)(C)C)C(=O)NS(=O)(=O)C1CC1 | BMS/H77C/J416S | NS3/NS4A protease | IC50 |  | 0.1–1 µM |
| C=C[C@H]1C[C@@]1(NC(=O)[C@@H]1C[C@@H](Oc2cc(-c3ccccc3)nc3cc(OC)ccc23)CN1C(=O)[C@@H](NC(=O)OC(C)(C)C)C(C)(C)C)C(=O)NS(=O)(=O)C1(C(=C)C)CC1 | BMS | NS3/NS4A protease | IC50 |  | <0.05 µM |
| CC(NC(=O)c1ccc2c(c1)nc(-c1ccoc1)n2C1CCCCC1)C(=O)Nc1cccc(OCC(=O)O)c1 |  | NS5B polymerase | IC50 |  | 0.5–5 µM |
| CC[C@@H](C=O)NC(=O)[C@@H]1C[C@@H](NC(=O)c2ccc(Cl)c(Cl)c2)CN1C(=O)[C@@H](NC(=O)[C@@H](NC(=O)c1cnccn1)C(C)C)C(C)C |  | NS3 protease | Ki |  | 1–100 µM |
| CNC(=O)c1c(-c2ccc(F)cc2)oc2cc(N3CCOCC3)c(OC(C)C)cc12 |  | Nonstructural protein 5B | IC50 |  | ≤0.5 µM |
| CNC(=O)c1cc2nc(-c3ccc(Cl)cc3)cc(-c3ccc(Oc4ccccc4)cc3)n2n1 |  | RNA-dependent RNA polymerase | IC50 |  | >10 µM |
| CC[C@@H](C=O)NC(=O)[C@@H]1C[C@@H](OCc2ccccc2)CN1C(=O)[C@@H](NC(=O)c1ccc(O)c(Cl)c1)C(C)C |  | NS3 protease | Ki |  | 1–100 µM |
| O=C(NC(Cc1c[nH]c2ccc(O)cc12)C(=O)O)c1ccc2c(c1)nc(-c1ccc3ncc(-c4ccccc4)cc3c1)n2C1CCCCC1 |  | NS5B polymerase | inhibition | 100 µM | 98.4% |

For reference, 7 entries again:

compound,strain or isolate,protein,measure,tested at,result
O=C(O)c1cnn2c(C3CCCCC3)c(-c3ccc(OCc4ccccc4)c(F)c3)cnc12,,RNA-dependent RNA polymerase,IC50,,1–10 µM
CCOC(=O)c1sc2ccc(NC(=O)C3(NC(=O)c4ccc5c(c4)nc(-c4ccoc4)n5C4CCCCC4)CCCC3)cc2c1C,,NS5B polymerase,IC50,,0.5–5 µM
O=C(O)c1ccc2c(c1)nc(-c1ccc3nc(CCCO)ccc3c1)n2C1CCCCC1,,NS5B polymerase,inhibition,100 µM,93.53%
CNC(=O)c1c(-c2ccc(F)cc2)oc2cc(N(Cc3nc(C(=O)O)cs3)S(C)(=O)=O)c(OC(C)C)cc12,,Nonstructural protein 5B,IC50,,≤0.5 µM
CNC(=O)c1cc2nc(-c3ccc(Cl)cc3)cc(-c3ccc(Oc4ccccc4)cc3)n2n1,,RNA-dependent RNA polymerase,IC50,,>10 µM
C=CC1CC1(NC(=O)[C@@H]1C[C@@H](OC(=O)Nc2cc(Cl)nc(Cl)c2)CN1C(=O)[C@@H](NC(=O)OC(C)(C)C)C(C)(C)C)C(=O)NS(=O)(=O)C1CC1,BMS/H77C/J416S,NS3/NS4A protease,IC50,,0.1–1 µM
C=CC1CC1(NC(=O)[C@@H]1C[C@@H](OC(=O)NC2CCCCC2)CN1C(=O)[C@@H](NC(=O)OC(C)(C)C)C(C)(C)C)C(=O)NS(=O)(=O)C1CC1,BMS/H77C/J416S,NS3/NS4A protease,IC50,,<0.1 µM